# Potato spindle tuber viroid, stem 26: variant abundance in plants

PSTVd intermediate strain, stem 26: wild type AGGGUACCCU, pool pattern AGGGUNNCNN; upper and lower strand joined, each 5' to 3', the first 5 letters being the upper strand.

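A pool of all variants was put on leaves of three Nicotiana benthamiana plants. Progeny were sequenced from the inoculated region (day 5), the margin of the inoculated leaf (day 10) and systemic leaves (day 12).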

Numbers give reads per thousand; 0 = not seen among the reads, higher = more abundant.
Each value is the mean of three plants.
"Pool" is the share in the plasmid pool used as inoculum, on the same scale.
The inoculated region was read from the minus strand, the other sites from the plus strand.
IR is the inoculated region, LM the leaf margin, Sys the systemic leaves.

AGGGUGACGA (pool 2.76) gave IR 0.849; LM 0.0148; Sys 0. For AGGGUUGCAU (pool 3.52) the result was IR 1.24; LM 0.0173; Sys 0. AGGGUAUCGG (pool 3.03) read IR 1.12; LM 0; Sys 0. With AGGGUGCUCG (pool 0.0329) the assay gave IR 1.59; LM 0.282; Sys 0. For AGGGUACCUU (pool 2.96) the result was IR 28.6; LM 18.6; Sys 16.8.

For AGGGUAACGC (pool 2.86) the result was IR 0.787; LM 0; Sys 0. For AGGGUCUCCU (pool 4.62) the result was IR 2.42; LM 0.0595; Sys 0.00950. AGGGUUUCAA (pool 3.91) read IR 1.54; LM 0.0173; Sys 0.00623. AGGGUGACGC (pool 2.80) gave IR 2.18; LM 0.678; Sys 0. AGGGUUUCCG (pool 3.67) read IR 1.37; LM 0.0173; Sys 0.

For AGGGUGUCAU (pool 2.63) the result was IR 1.91; LM 0.646; Sys 0. AGGGUUGCGA (pool 4.64) gave IR 1.92; LM 0; Sys 0.00475. For AGGGUAACUG (pool 2.88) the result was IR 0.736; LM 0.00742; Sys 0. AGGGUAGCAU (pool 3.62) gave IR 1.47; LM 0.00992; Sys 0. With AGGGUAACAG (pool 3.44) the assay gave IR 1.08; LM 0.00992; Sys 0.00551.

AGGGUCGCCC (pool 7.30) gave IR 5.99; LM 0.683; Sys 0.130. For AGGGUAGCGG (pool 5.97) the result was IR 3.84; LM 0.0186; Sys 0.0172. AGGGUUGGCG (pool 0.0329) read IR 0.00788; LM 0; Sys 0. With AGGGUUCCCA (pool 3.91) the assay gave IR 1.69; LM 0; Sys 0.00475. For AGGGUUACGC (pool 2.42) the result was IR 0.817; LM 0; Sys 0.

AGGGUGUCUU (pool 4.89) gave IR 3.02; LM 1.88; Sys 0.520. With AGGGUCCUCG (pool 0.0329) the assay gave IR 0; LM 0; Sys 0. With AGGGUUGCGG (pool 6.33) the assay gave IR 2.88; LM 0.689; Sys 0.00475. AGGGUCCCUG (pool 3.88) gave IR 1.83; LM 0.00992; Sys 0.

Excerpt, the final 3 entries:

| sequence | pool | IR | LM | Sys |
|---|---|---|---|---|
| AGGGUCCUCG | 0.0329 | 0 | 0 | 0 |
| AGGGUUGCGG | 6.33 | 2.88 | 0.689 | 0.00475 |
| AGGGUCCCUG | 3.88 | 1.83 | 0.00992 | 0 |

For reference, wild type rose from 44.9 per thousand in the pool to 297, 323, 447 (inoculated region), 793, 829, 846 (leaf margin) and 974, 853, 877 (systemic leaves).
Sequences that differ at fixed positions probably stem from PCR or sequencing errors, and defective variants can be carried along by functional ones.
With 23,251-70,159 reads a sample, very low values are single reads.

From the data files of Wu et al. 2024, doi:10.1371/journal.ppat.1012142.